# Measurements taken from patent publication US20140357845A1 (published 2014).
# B1: CR9114 (antibody, V domains shown)
# VH: QVQLVQSGAEVKKPGSSVKVSCKSSGGTSNNYAISWVRQAPGQGLDWMGGISPIFGSTAYAQKFQGRVTISADIFSNTAYMELNSLTSEDTAVYFCARHGNYYYYSGMDVWGQGTTVTVSS
# VL: SYVLTQPPAVSGTPGQRVTISCSGSDSNIGRRSVNWYQQFPGTAPKLLIYSNDQRPSVVPDRFSGSKSGTSASLAISGLQSEDEAEYYCAAWDDSLKGAVFGGGTQLTVL
# Target: H5 mini-HA A/Vietnam/1203/2004 (influenza A virus H5N1, UniProt Q6DQ18 9-559)
# Test: FACS
binder,measurement,value
B1,binding result,binds
